Data taken from article PMC8941942, “Functional and Structural Characterization of Diverse NfsB Chloramphenicol Reductase Enzymes from Human Pathogens” (Microbiology Spectrum, 2022).

Tests used:
Hi Int1 NfsB = assay: NADPH oxidation at […] nm, Michaelis-Menten fit; type: biochemical, Haemophilus influenzae; settings: read-out: Km (μM)^a; apparent; 1 mM NADPH, 1 µM FMN, 50 mM Tris pH 8, ~23°C
Hi 12 NfsB = assay: NADPH oxidation at […] nm, Michaelis-Menten fit; type: biochemical, Haemophilus influenzae; settings: read-out: Km (μM)^a; apparent; 1 mM NADPH, 1 µM FMN, 50 mM Tris pH 8, ~23°C

## O=C(N[C@H](CO)[C@H](O)c1ccc([N+](=O)[O-])cc1)C(Cl)Cl [chloramphenicol]
Hi Int1 NfsB
  Km: 240 µM
Hi 12 NfsB
  Km: 160 µM
